Measured values from several laboratories, pooled; numbers as filed in NIAID ChemDB.

Shared fields: enzyme or target tests; species: Human cytomegalovirus; protein: Protease; read-out: IC50

Conditions beyond the fields shown may differ between rows. ICn: concentration for n% inhibition. An empty or dashed field is not shown.

| structure | strain or isolate | read by | value |
|---|---|---|---|
| CC(=O)C(C(C)=O)C1=C(Cl)C(=O)c2ccccc2C1=O |  | HPLC | 9.1 µM |
| COc1c(C)cc(N)c(CS(=O)c2nc3ccc(Cl)cc3[nH]2)c1C |  |  | 1.4 µM |
| O=C1C[C@@H](Cc2ccccc2)N1C(=O)NCc1ccncc1 |  |  | >75 µM |
| CC[C@@H](NC(=O)N1C(=O)C[C@@H]1CSc1nc2ccccc2o1)c1ccccc1 |  |  | 3.8 µM |
| O=C1C[C@H](Cc2ccco2)N1C(=O)NCc1ccc(C(F)(F)F)cc1 |  |  | 7.1 µM |
| CC(C)c1ccc(NC(=O)N2CCC[C@H]2C(=O)N2CC[C@H]3[C@H]2[C@H](C)C(=O)N3C(=O)c2ccc([N+](=O)[O-])cc2)cc1 | AD169 |  | >24 µM |
| CC[C@@H](NC(=O)N1C(=O)C[C@@H]1CSc1nc2ncccc2s1)c1ccccc1 |  |  | 2.8 µM |
| CCC(NC(=O)N1C(=O)[C@@H](C)[C@@H]1Cc1ccccc1)c1ccncc1 |  |  | 9 µM |
| CNC(=O)N1C(=O)C[C@H]1OC(C)=O |  |  | <500 µM |
| O=C1C[C@H](Cc2nc3ccccc3s2)N1C(=O)NCc1ccc(C(F)(F)F)cc1 |  |  | 2.7 µM |
| CC[C@@H](NC(=O)N1C(=O)C[C@@H]1CSc1ncccn1)c1ccccc1 |  |  | 3.1 µM |
| Cc1c(NC(=O)OC(C)(C)C)ccc2nc(N[C@@H](C)C(=O)OCc3ccccc3)oc(=O)c12 |  |  | 4.7 µM |
| COc1c(C)cc(N)c(CS(=O)c2nc3ccccc3[nH]2)c1C |  |  | 4.3 µM |
| CC(C)c1ccc(NC(=O)N2CCC[C@H]2C(=O)N2CC[C@H]3[C@H]2[C@H](C)C(=O)N3C(=O)C2C(C)(C)C2(C)C)cc1 | AD169 |  | 16 µM |
| O=C1C[C@H](Cc2nccs2)N1C(=O)NCc1ccc(C(F)(F)F)cc1 |  |  | 4.9 µM |
| CC[C@@H](NC(=O)N1C(=O)C[C@@H]1CSc1ccccn1)c1ccccc1 |  |  | 6.3 µM |
| O=C1C[C@H](Cc2ccccn2)N1C(=O)NCc1ccc(C(F)(F)F)cc1 |  |  | 63 µM |
| COC(=O)[C@H](CC(=O)O)Nc1nc2ccc(NC(=O)OC(C)(C)C)c(C)c2c(=O)o1 |  |  | 4.2 µM |
| CC(=O)C(C(=O)OCc1ccccc1)C1=C(Cl)C(=O)c2ccccc2C1=O |  | scintillation proximity | 0.8 µM |
| Cc1c(Br)ccc2nc(N[C@H](C)C(=O)OC(C)(C)C)oc(=O)c12 |  |  | 1.8 µM |
| Cc1ccc(C)c(CS(=O)c2nc3ccccc3[nH]2)c1N |  |  | 11 µM |
| COC(=O)[C@H](C)Nc1nc2ccc(NC(=O)c3ccccn3)c(C)c2c(=O)o1 |  |  | 0.31 µM |
| CC(=O)O[C@@H]1CC(=O)N1 |  |  | >500 µM |